The values below come from publication PMC11218954 (2024).

This experiment has as its target m1 (UniProt P26948 22-170, biotin (NHS-LC-LC biotinylation kit)). Put plainly: FACS.

B1: m9 (protein)
chain 1: QVQLQQWGAGLLKPSETLSLTCAVYGGSFSGYYWSWIRQPPGKGLEWIGEINHSGNTNYNPSLKSRVTISVDTSKNQFSLQLNSVTPEDTAVYYCARTRGYFDLWGRGTLVTVSS
chain 2: QPVLTQSPSVSVSPGQTASITCSGDKLGGRYASWYQQKPGQSPVLVIYQDTKRPSGIPERFSGSNSGNTATLTISGTQAMDEADYYCQSWDSSAAVFGTGTKLTVL
For B1, the Kd amounted to 36.3 nM.

For orientation: Kd means the free concentration of one partner at which half of the binding sites on the other are occupied at equilibrium, for simple one-to-one binding. Lower therefore signals higher affinity.
